Compound potency records, mixed from different reports. Data source: NIAID ChemDB in PubChem.

Shared fields: whole-cell or culture tests; organism: HIV-1

ECn is the concentration giving n% inhibition of infection, replication or growth. Blank or dashed fields: not listed here. Conditions beyond the fields shown may differ between rows.

smiles,read by,strain,mutations,endpoint,setting,cells,result
Nc1c(S(=O)(=O)O)cc2c3c(cc(S(=O)(=O)O)cc13)C(=O)N(NC(=O)N/N=C/c1ccc(-c3ccc(/C=N/NC(=O)NN4C(=O)c5cc(S(=O)(=O)O)cc6c(N)c(S(=O)(=O)O)cc(c56)C4=O)cc3)cc1)C2=O,RT activity,LAV,,EC90,,,146.9 µM
OC[C@H]1C=C[C@@H](n2cnc3c2NCNC3=S)C1,,,,EC50,,PBMC,>100 µM
[Li+],cytopathic effect / MTT,IIIB,,EC50,,MT-2,>200 µg/mL
Nc1nc2c(ncn2[C@@H]2C=C[C@H](CO)O2)c(=O)[nH]1,,,,EC50,,CEM,18.1 µM
Cc1cn([C@H]2C[C@H](N=[N+]=[N-])[C@@H](CO)O2)c(=O)[nH]c1=O,cytopathic effect,LZ-07.96 (HXB2 RT T69N L74I Q151M M184V),RT-T69N L74I Q151M M184V,EC50,,MT-4,0.252 µM
CN(C)CCCN1c2ccccc2Sc2ccc(Cl)cc21,cytopathic effect / MTT,IIIB,,EC50,,CEM-T4 + CEM,>6.3 µg/mL
CC(C)C1=C2[C@H]3CC[C@@H]4[C@@]5(C)CC[C@H](OC(=O)[C@H]6C[C@@H](C(=O)O)C6(C)C)C(C)(C)[C@@H]5CC[C@@]4(C)[C@]3(C)CC[C@@]2(c2ncc(-c3ccc(Cl)cc3)[nH]2)CC1=O,p24 / ELISA,92HT599,,EC50,,MT-2,<0.01 µM
Cc1cn([C@@H]2C[C@@H](N=[N+]=[N-])[C@H](CO)O2)c(=O)[nH]c1=O,RT activity,LAV,,EC50,,PBMC,>100 µM
Cc1cn([C@H]2C[C@H](N=[N+]=[N-])[C@@H](CO)O2)c(=O)[nH]c1=O,plaque count,RTMQ+184V (RT M41L D67N K70R M184V T215Y),RT-M41L D67N K70R M184V T215Y,EC50,,HT4LACZ-1 + HT4 LacZ-1,0.03 µM
Oc1ccc2c(c1)N=C(N1CCNCC1)c1ccccc1N2,cytopathic effect / MTT,IIIB,,EC50,,MT-2,85 µg/mL
Cc1cc(C)c(-n2nnnc2SCC(=O)Nc2ccc(C)c([N+](=O)[O-])c2)c(C)c1,p24,,,EC50,,MT-4,<10 µM
O=c1[nH]cnc2c1ncn2[C@H]1CC[C@@H](CO)O1,cytopathic effect,FO-01.95,,EC50,,MT-4,15.9 µM
Cc1cn([C@@H]2O[C@H](CO[Si](C)(C)C(C)(C)C)C3(OS(=O)(=O)C=C3N)[C@H]2O[Si](C)(C)C(C)(C)C)c(=O)n(C)c1=O,syncytia,NEV(RT-V106A),RT-V106A,EC50,,CEM,3.7 µM
c1cc(CN2CCCNCCNCCCNCC2)ccc1CN1CCCNCCNCCCNCC1,β-galactosidase,A018A,,EC50,,MAGI + MAGI-CCR5,0.049 µM
C=C(C)OC(=O)N1c2cc(Cl)ccc2NC(=S)C1(C)C,syncytia,MN,,EC50,,CEM,0.003 µM
Cc1ccccc1NC(=O)CSc1nnnn1-c1cccc2ccccc12,p24,,,EC95,,MT-4,<10 µM
OCCOCCN1CCN(C2=Nc3ccccc3Sc3ccccc32)CC1,cytopathic effect / MTT,IIIB,,EC50,,CEM-T4 + CEM,>68 µg/mL
Nc1ncnc2c1ncn2[C@@H]1C=C[C@H](CO)O1,,,,EC50,,PBMC,0.38 µM
Cc1cc(C)c(-n2nnnc2SCC(=O)Nc2ccccc2Cl)c(C)c1,p24,,,EC95,,MT-4,<10 µM
Cc1cc(S(N)(=O)=O)ccc1NC(=O)COc1ccccc1C(=O)c1cc(Cl)cc(C#N)c1,,IIIB,,EC50,,,<0.002 µM
Nc1ncnc2c1ncn2[C@@H]1CC[C@H](CO)O1,,,,EC50,,PBMC,8.2 µM
Cc1cn([C@H]2C[C@H](N=[N+]=[N-])[C@@H](CO)O2)c(=O)[nH]c1=O,cytopathic effect / MTT,IIIB,,EC50,,MT-2,0.02 µg/mL
Cn1ncc2c1S(=O)(=O)N(CCc1ccccc1)C(=O)N2CCc1ccccc1Cl,MTT,IIIB,,EC50,,MT-4,>300.1 µM
Cc1nn([C@H]2C[C@H](N=[N+]=[N-])[C@@H](CO)O2)c(=O)[nH]c1=O,RT activity,LAV Laboratory strain,,EC50,,PBMC (mitogen stimulated) + PBMC,>100 µM
Nc1c(S(=O)(=O)O)cc2c3c(cc(S(=O)(=O)O)cc13)C(=O)N(NC(=O)N/N=C\c1ccc(-c3ccc(C=O)cc3)cc1)C2=O,RT activity,LAV,,EC50,,,180 µM
Cc1ccnc2c1NC(=O)c1cccnc1N2C1CC1,,,RT-D67N K70R T215Y K219Q K103N,EC95,,MT-4,>3 µM
COc1ccc(NC(=O)CSc2nnnn2-c2c(C)cc(C)cc2C)c(C)c1,p24,,,EC95,,MT-4,<10 µM
Cc1cn([C@@H]2C=C[C@H](CO)O2)c(=O)[nH]c1=O,RT activity,LAV,,EC50,,PBMC,>100 µM
CC(C)C1=C2[C@H]3CC[C@@H]4[C@@]5(C)CC[C@H](OC(=O)[C@H]6C[C@@H](C(=O)O)C6(C)C)C(C)(C)[C@@H]5CC[C@@]4(C)[C@]3(C)CC[C@@]2(c2ncc(-c3ccccc3)[nH]2)CC1=O,p24 / ELISA,92HT599,,EC50,,MT-2,<0.01 µM
Cc1cn([C@H]2C[C@H](N=[N+]=[N-])[C@@H](CO)O2)c(=O)n(N)c1=O,RT activity,BRU,,EC50,,CEM-C113 + CEM/C113,0.01 µM
O=c1[nH]cnc2c1ncn2[C@H]1CC[C@@H](CO)O1,cytopathic effect / MTT,IIIB,,EC50,,CEM-T4 + CEM,0.43 µg/mL
Cc1cn([C@H]2C=C[C@@H](CO)O2)c(=O)[nH]c1=O,RT activity,LAV,,EC50,,PBMC,0.009 µM
OCCN1CCN(CCCN2c3ccccc3Sc3ccc(C(F)(F)F)cc32)CC1,cytopathic effect / MTT,IIIB,,EC50,,CEM-T4 + CEM,>9.1 µg/mL
C[C@]12CC[C@H](O)CC1=CC[C@@H]1[C@@H]2CC[C@]2(C)C(=O)CC[C@@H]12,RT activity,4246 Clinical isolate,,EC50,,MT-2,50 µM
Nc1nc(Cl)nc2c1ncn2[C@@H]1C[C@H](O)[C@H](CO)O1,cytopathic effect / MTT,,,EC50,,MT-4,>10 µM
O=[N+]([O-])c1ccc(/C=N/Nc2ccnc3c(C(F)(F)F)cc(Cl)cc23)o1,cytopathic effect,,,EC50,,,0.033 µM
Nc1c(S(=O)(=O)[O-])cc2c3c(cc(S(=O)(=O)[O-])cc13)C(=O)N(NC(=O)N/N=C\c1cccc(C=O)c1)C2=O.[Na+].[Na+],RT activity,LAV,,EC50,,,>1760 µM
CCc1c(Sc2ccccn2)n(COCc2ccccc2)c(=O)[nH]c1=O,cytopathic effect / XTT,IIIB HEPT-resistant (RT P236L),RT-P236L,EC50,,CEM + CEM-SS,1 µM
CC(C)Nc1cccnc1N1CCN(C(=O)c2cc3ccccc3[nH]2)CC1,syncytia,Pyr(RT-Y181C),RT-Y181C,EC50,,CEM,0.9 µM
Cc1cn([C@H]2C[C@H](N)[C@@H](CO)O2)c(=O)[nH]c1=O,RT activity,LAV,,EC50,,PBMC,>100 µM
Cn1ncc2c1S(=O)(=O)N(CCc1ccccc1)C(=O)N2CCc1ccccc1Br,MTT,IIIB,,EC50,,MT-4,>271.1 µM
CC(C)C1=C2[C@H]3CC[C@@H]4[C@@]5(C)CC[C@H](OC(=O)[C@H]6C[C@@H](C(=O)O)C6(C)C)C(C)(C)[C@@H]5CC[C@@]4(C)[C@]3(C)CC[C@@]2(c2ncc(-c3ccc(Cl)cc3)n2CCN(C)C)CC1=O,p24 / ELISA,92HT599,,EC50,,MT-2,<0.01 µM
Nc1ccn([C@H]2CC[C@@H](CO)O2)c(=O)n1,cytopathic effect,LZ-07.96 (HXB2 RT T69N L74I Q151M M184V),RT-T69N L74I Q151M M184V,EC50,,MT-4,>20 µM
Clc1ccc2c(c1)N=C(N1CCNCC1)c1ccccc1N2,cytopathic effect / MTT,IIIB,,EC50,,MT-2,>7 µg/mL
CC[C@H](C)C(=O)O[C@@H]1C(=O)[C@@]2(OC(=O)C(C)C)[C@@]3(O)C[C@@]1(C)[C@H](CC(=O)OC)[C@@]3(C)[C@H]1CC[C@@]3(C)[C@H](c4ccoc4)OC(=O)C[C@]34O[C@]142,luciferase,,,EC50,pseudotyped,SupT1,17.45 µM
CC1=NO[C@@]2(CC[C@H](C)N3C[C@H]2n2cc(C(=O)NCc4ccc(F)cc4F)c(=O)c(OCOC(=O)OCC4(COP(=O)(O)O)CCC4)c2C3=O)C1,luminescence,IIIB,,EC50,,MT-4,0.002514 µM
Cc1cn([C@H]2C[C@H](N=[N+]=[N-])[C@@H](CO)O2)c(=O)[nH]c1=O,syncytia,DV,,EC50,,SupT1 + Sup-T1,0.04 µM
c1ccc(CSc2nnnn2-c2cccc3ccccc23)nc1,p24,,,EC95,,MT-4,<10 µM
CC1=NO[C@@]2(CC[C@H](C)N3C[C@H]2n2cc(C(=O)NCc4ccc(F)cc4F)c(=O)c(OCOC(=O)N4CC[C@H]4COP(=O)(O)O)c2C3=O)C1,luminescence,IIIB,,EC50,,MT-4,0.021 µM
Nc1nc(Cl)nc2c1ncn2[C@@H]1C[C@@H](F)[C@H](CO)O1,RT activity,,,EC50,,CEM + CEM-SS,>10 µM
Cc1cc(C)c(-n2nnnc2SCC(=O)Nc2ccccc2[N+](=O)[O-])c(C)c1,p24,,,EC50,,MT-4,<10 µM
Cn1ncc2c1S(=O)(=O)N(CCc1ccccc1)C(=O)N2CCc1ccc(C(C)(C)C)cc1,MTT,IIIB,,EC50,,MT-4,>285.4 µM
Cn1c2ccccc2c2c3c(c4c5ccccc5n(CCC#N)c4c21)CNC3=O,syncytia,,,EC50,,U1/HIV-1(PMA) + U1,0.04 µM
Nc1nc(Cl)nc2c1ncn2[C@H]1CC[C@@H](CO)O1,RT activity,HXBc2,,EC50,,C8166,<100 µM
CC(C)C[C@H](NC(=O)[C@@H](N)CO)C(=O)N[C@@H](CC(N)=O)C(=O)N[C@@H](Cc1ccccc1)B(O)O,cytopathic effect / XTT,RF,,EC50,,CEM + CEM-SS,>82 µM
Cc1cn([C@H]2C[C@H](N=[N+]=[N-])[C@@H](COP(=O)(OC(C)CSC(=O)C(C)(C)C)OC(C)CSC(=O)C(C)(C)C)O2)c(=O)[nH]c1=O,cytopathic effect / MTT,LAI,,EC50,,CEM + CEM-SS,0.004 µM
CC(=O)c1ccccc1NC(=O)CSc1nnnn1-c1c(C)cc(C)cc1C,p24,,,EC50,,MT-4,<10 µM
CC(C)=CCN1Cc2cc(Cl)cc3[nH]c(=S)n(c23)C[C@@H]1C,syncytia,NEV(RT-V106A),RT-V106A,EC50,,CEM,1.6 µM

Repeating the final 4 entries:

smiles | read by | strain | mutations | endpoint | setting | cells | result
CC(C)C[C@H](NC(=O)[C@@H](N)CO)C(=O)N[C@@H](CC(N)=O)C(=O)N[C@@H](Cc1ccccc1)B(O)O | cytopathic effect / XTT | RF |  | EC50 |  | CEM + CEM-SS | >82 µM
Cc1cn([C@H]2C[C@H](N=[N+]=[N-])[C@@H](COP(=O)(OC(C)CSC(=O)C(C)(C)C)OC(C)CSC(=O)C(C)(C)C)O2)c(=O)[nH]c1=O | cytopathic effect / MTT | LAI |  | EC50 |  | CEM + CEM-SS | 0.004 µM
CC(=O)c1ccccc1NC(=O)CSc1nnnn1-c1c(C)cc(C)cc1C | p24 |  |  | EC50 |  | MT-4 | <10 µM
CC(C)=CCN1Cc2cc(Cl)cc3[nH]c(=S)n(c23)C[C@@H]1C | syncytia | NEV(RT-V106A) | RT-V106A | EC50 |  | CEM | 1.6 µM